Anti-infective test results gathered from many reports (values: NIAID ChemDB through PubChem).

Common to all: whole-cell or culture tests; organism: Streptococcus pneumoniae; measure: MIC

Rows are shuffled and stem from different studies.

smiles	strain or isolate	result
NC1CCN(c2ccc3c(=O)c(C(=O)O)cn(C4CC4)c3c2Cl)C1	D-1687	2 µg/mL
CC[C@H]1OC(=O)[C@@](C)(F)C(=O)[C@H](C)[C@@H](O[C@@H]2O[C@H](C)C[C@H](N(C)C)[C@H]2O)[C@@]2(C)C[C@@H](C)C(=NC(C)=O)[C@H](C)[C@@H](OC/C(=N\OCc3ccc(C(N)=O)s3)CO2)[C@]1(C)O	49619 (erythromycin A-susceptible)	<0.06 µg/mL
CC[C@H]1OC(=O)[C@H](C)C(=O)[C@H](C)[C@@H](O[C@@H]2O[C@H](C)C[C@H](N(C)C)[C@H]2O)[C@@]2(C)C[C@@H](C)C(=NC(C)=O)[C@H](C)C(OC/C(=C\C=C\c3ccc(F)cc3)CO2)[C@]1(C)O	49619 (erythromycin-susceptible)	<0.06 µg/mL
CC(=O)NC[C@H]1CN(c2ccc(-c3ccnn3C)c(F)c2)C(=O)O1	UC9912	≤0.5 µg/mL
CC[C@H]1OC(=O)[C@H](C)C(=O)[C@H](C)[C@@H](O[C@@H]2O[C@H](C)C[C@H](N(C)C)[C@H]2O)[C@@](C)(OCCCc2cnc3ccccc3c2)C[C@@H](C)C(=O)[C@H](C)[C@H]2NC(=O)O[C@@]21C	ATCC 6303	0.03 µg/mL
CC[C@H]1OC(=O)[C@H](C)C(=O)[C@H](C)[C@@H](O[C@@H]2O[C@H](C)C[C@H](N(C)C)[C@H]2O)[C@@]2(C)C[C@@H](C)C(=NC(C)=O)[C@H](C)[C@@H](OC/C(=N\Oc3ccccc3)CO2)[C@]1(C)O	49619 (erythromycin-susceptible)	<0.06 µg/mL
CC[C@H]1OC(=O)[C@H](C)C(=O)[C@H](C)[C@@H](O[C@@H]2O[C@H](C)C[C@H](N(C)C)[C@H]2O)[C@@]2(C)C[C@@H](C)C(=NC(C)=O)[C@H](C)C(OC/C(=C\C=C\c3cccc([N+](=O)[O-])c3)CO2)[C@]1(C)O	700906 (erythromycin-resistant-ERM)	0.5 µg/mL
COc1c(N2C[C@@H]3CCCN[C@@H]3C2)ccc2c(=O)c(C(=O)O)cn(C3CC3)c12	R6-G8	1 µg/mL
CC[C@H]1OC(=O)[C@@](C)(F)C(=O)[C@H](C)[C@@H](O[C@@H]2O[C@H](C)C[C@H](N(C)C)[C@H]2O)[C@@]2(C)C[C@@H](C)C(=NC(C)=O)[C@H](C)[C@@H](OC/C(=N\OCc3ccc(N)nc3)CO2)[C@]1(C)O	700906 (erythromycin A-resistant)	<0.06 µg/mL
CC[C@H]1OC(=O)[C@H](C)C(=O)[C@H](C)[C@@H](O[C@@H]2O[C@H](C)C[C@H](N(C)C)[C@H]2O)[C@@]2(C)C[C@@H](C)C(=NC(C)=O)[C@H](C)[C@@H](OC/C(=N\OCCc3ccccc3)CO2)[C@]1(C)O	7701 (erythromycin-resistant-MEF)	0.5 µg/mL
CC[C@H]1OC(=O)[C@H](C)C(=O)[C@H](C)[C@@H](O[C@@H]2O[C@H](C)C[C@H](N(C)C)[C@H]2O)[C@@]2(C)C[C@@H](C)C(=NC(C)=O)[C@H](C)C(OC/C(=C\C#Cc3cccnc3)CO2)[C@]1(C)O	49619 (erythromycin-susceptible)	<0.06 µg/mL
CC[C@H]1OC(=O)[C@H](C)C(=O)[C@H](C)[C@@H](O[C@@H]2O[C@H](C)C[C@H](N(C)C)[C@H]2O)[C@@]2(C)C[C@@H](C)C(=NC(C)=O)[C@H](C)C(OC/C(=N\OCC#Cc3cccc(N)n3)CO2)[C@]1(C)O	7701 (erythromycin-resistant-MEF)	0.13 µg/mL
O=C(CC(=O)Nc1cc(C(F)(F)F)cc(C(F)(F)F)c1)Nc1cccc(C2=NCCN2)c1	STP51 (penicillin-resistant)	27 µM
CC[C@H]1OC(=O)[C@H](C)C(=O)[C@H](C)[C@@H](O[C@@H]2O[C@H](C)C[C@H](N(C)C)[C@H]2O)[C@](C)(OC)C[C@@H](C)C(=O)[C@H](C)[C@H]2N(CCCCn3cnc(-c4cccnc4)c3)C(=O)O[C@]12C	49619 (erythromycin A-susceptible)	0.06 µg/mL
CC[C@H]1OC(=O)[C@H](C)C(=O)[C@H](C)[C@@H](O[C@@H]2O[C@H](C)C[C@H](N(C)C)[C@H]2O)[C@@]2(C)C[C@@H](C)C(=NC(C)=O)[C@H](C)[C@@H](OC/C(=N\Oc3ccc(-n4cccn4)nc3)CO2)[C@]1(C)O	7701 (erythromycin-resistant-MEF)	<0.06 µg/mL
CC[C@H]1OC(=O)[C@H](C)C(=O)[C@H](C)[C@@H](O[C@@H]2O[C@H](C)C[C@H](N(C)C)[C@H]2O)[C@@]2(C)C[C@@H](C)C(=O)[C@H](C)C(OC/C=C/CO2)[C@]1(C)O	7701 (erythromycin-resistant-MEF)	0.5 µg/mL
CC[C@H]1OC(=O)[C@H](C)C(=O)[C@H](C)[C@@H](O[C@@H]2O[C@H](C)C[C@H](N(C)C)[C@H]2O)[C@@](C)(OC/C=C/c2cccc3cccnc23)C[C@@H](C)C(=O)[C@H](C)[C@H]2NC(=O)O[C@@]21C	ATCC 6303	0.125 µg/mL
O=C(NNc1ccccn1)Nc1cc(C(F)(F)F)cc(C(F)(F)F)c1	STP6301	9.7 µM
CC[C@H]1OC(=O)[C@H](C)C(=O)[C@H](C)[C@@H](O[C@@H]2O[C@H](C)C[C@H](N(C)C)[C@H]2O)[C@@]2(C)C[C@@H](C)C(=NC(C)=O)[C@H](C)[C@@H](OC/C(=N\OCCCc3ccccc3)CO2)[C@]1(C)O	7701 (erythromycin-resistant-MEF)	0.25 µg/mL
COc1c(N2CCNC(C)C2)c(F)cc2c(=O)c(C(=O)O)cn(C3CC3)c12	R6-G8	0.5 µg/mL
CC[C@H]1OC(=O)[C@H](C)C(=O)[C@H](C)[C@@H](O[C@@H]2O[C@H](C)C[C@H](N(C)C)[C@H]2O)[C@@]2(C)C[C@@H](C)C(=NC(C)=O)[C@H](C)[C@@H](OC/C(=N\OCC#Cc3ccc(N)nc3)CO2)[C@]1(C)O	7701 (erythromycin-resistant-MEF)	<0.06 µg/mL
CCC(=O)N=C1[C@H](C)C[C@@]2(C)OC/C(=C/C=C/c3ccccc3)COC([C@H]1C)[C@](C)(O)[C@@H](CC)OC(=O)[C@H](C)C(=O)[C@H](C)[C@H]2O[C@@H]1O[C@H](C)C[C@H](N(C)C)[C@H]1O	700906 (erythromycin-resistant-ERM)	8 µg/mL
CC[C@H]1OC(=O)[C@@](C)(F)C(=O)[C@H](C)[C@@H](O[C@@H]2O[C@H](C)C[C@H](N(C)C)[C@H]2O)[C@@]2(C)C[C@@H](C)C(=NC(C)=O)[C@H](C)[C@@H](OC/C(=N\OCc3ccc(-c4csnn4)nc3)CO2)[C@]1(C)O	7701 (erythromycin A-resistant)	<0.06 µg/mL
O=C(NNC(=O)Nc1cc(C(F)(F)F)cc(C(F)(F)F)c1)Nc1cc(C(F)(F)F)cc(C(F)(F)F)c1	STP51	1.7 µM
CC(=O)NC[C@H]1CN(c2ccc3c(c2)OCc2nccn2-3)C(=O)O1	1707/4	0.125 µg/mL
CC(=O)NC[C@H]1CN(c2ccc(-c3cc(C#N)cs3)c(F)c2)C(=O)O1	UC9912	≤0.5 µg/mL
CC[C@H]1OC(=O)[C@H](C)C(=O)[C@H](C)[C@@H](O[C@@H]2O[C@H](C)C[C@H](N(C)C)[C@H]2O)[C@@]2(C)C[C@@H](C)C(=NC(C)=O)[C@H](C)C(OC/C(=C\C=C\c3ccc([N+](=O)[O-])cc3)CO2)[C@]1(C)O	49619 (erythromycin-susceptible)	<0.06 µg/mL
CC[C@H]1OC(=O)[C@H](C)C(=O)[C@H](C)[C@@H](O[C@@H]2O[C@H](C)C[C@H](N(C)C)[C@H]2O)[C@@]2(C)C[C@@H](C)C(=NC(C)=O)[C@H](C)[C@@H](OC/C(=N\Oc3ccc(-c4cnccn4)s3)CO2)[C@]1(C)O	49619 (erythromycin-susceptible)	<0.06 µg/mL
CC[C@H]1OC(=O)[C@H](C)C(=O)[C@H](C)[C@@H](O[C@@H]2O[C@H](C)C[C@H](N(C)C)[C@H]2O)[C@@]2(C)C[C@@H](C)C(=NC(C)=O)[C@H](C)C(OC/C(=C\C#Cc3ccccc3)CO2)[C@]1(C)O	49619 (erythromycin-susceptible)	<0.06 µg/mL
CC[C@H]1OC(=O)[C@@](C)(F)C(=O)[C@H](C)[C@@H](O[C@@H]2O[C@H](C)C[C@H](N(C)C)[C@H]2O)[C@@]2(C)C[C@@H](C)C(=NC(C)=O)[C@H](C)[C@@H](OC/C(=N\OCc3ccc4nc(N)sc4c3)CO2)[C@]1(C)O	7701 (erythromycin A-resistant)	0.13 µg/mL
COC(=O)n1ccc(-c2ccc(N3C[C@H](CNC(C)=O)OC3=O)cc2F)n1	UC9912	1 µg/mL
CC[C@H]1OC(=O)[C@@](C)(F)C(=O)[C@H](C)[C@@H](O[C@@H]2O[C@H](C)C[C@H](N(C)C)[C@H]2O)[C@@]2(C)C[C@@H](C)C(=NC(C)=O)[C@H](C)[C@@H](OC/C(=N\OCc3ccc(-c4cccc(N)n4)s3)CO2)[C@]1(C)O	7701 (erythromycin A-resistant)	<0.06 µg/mL
C[C@H]1NCc2cc(-c3c(F)cc4c(=O)c(C(=O)O)cn(C5CC5)c4c3OC(F)F)ccc21	R6-G8	0.06 µg/mL
O=C(Nc1ccc(C(F)(F)F)cc1)Nc1ccc(C(F)(F)F)cc1	STP6301	38 µM
CC(=O)NC[C@H]1CN(c2ccc(-c3cnc(C(C)=O)s3)c(F)c2)C(=O)O1	UC9912	≤0.125 µg/mL
C[C@H]1NCc2cc(-c3ccc4c(=O)c(C(=O)O)cn(C5CC5)c4c3OC(F)F)ccc21	R6	0.03 µg/mL
CC(=O)NC[C@H]1CN(c2ccc(-c3ccn(CCC#N)n3)c(F)c2)C(=O)O1	UC9912	2 µg/mL
CC[C@H]1OC(=O)[C@@](C)(F)C(=O)[C@H](C)[C@@H](O[C@@H]2O[C@H](C)C[C@H](N(C)C)[C@H]2O)[C@@]2(C)C[C@@H](C)C(=NC(C)=O)[C@H](C)[C@@H](OC/C(=N\OCc3ccc4cnn(C(N)=O)c4c3)CO2)[C@]1(C)O	700906 (erythromycin A-resistant)	0.25 µg/mL

For reference, 4 entries again:

smiles	strain or isolate	result
CC[C@H]1OC(=O)[C@@](C)(F)C(=O)[C@H](C)[C@@H](O[C@@H]2O[C@H](C)C[C@H](N(C)C)[C@H]2O)[C@@]2(C)C[C@@H](C)C(=NC(C)=O)[C@H](C)[C@@H](OC/C(=N\OCc3ccc4nc(N)sc4c3)CO2)[C@]1(C)O	7701 (erythromycin A-resistant)	0.13 µg/mL
CC(=O)NC[C@H]1CN(c2ccc3c(c2)OCc2nccn2-3)C(=O)O1	1707/4	0.125 µg/mL
CC[C@H]1OC(=O)[C@H](C)C(=O)[C@H](C)[C@@H](O[C@@H]2O[C@H](C)C[C@H](N(C)C)[C@H]2O)[C@@]2(C)C[C@@H](C)C(=NC(C)=O)[C@H](C)C(OC/C(=C\C#Cc3cccnc3)CO2)[C@]1(C)O	49619 (erythromycin-susceptible)	<0.06 µg/mL
O=C(Nc1ccc(C(F)(F)F)cc1)Nc1ccc(C(F)(F)F)cc1	STP6301	38 µM